Test results published in US20090143288A1, “Peptide-complement conjugates” (Roche Palo Alto LLC, priority 2007, published 2009).

Biological target: biotinylated HR1 peptide Biotin-T-2324 (HIV-1)

B1: Rob 2 (Fusion protein C1qA-T1357) (protein)
chain: MRGSHHHHHHIEGRGARGIPGIKGTKGSPGNIKDQPRPAFSAIRRNPPMGGNVVIFDTVITNQEEPYQNHSGRFVCTVPGYYYFTFQVLSQWEICLSIVSSSRGQVRRSLGFCDTTNKGLFQVVSGGMVLQLQQGDQVWVEKDPKKGHIYQGSEADSVFSGFLIFPSAGGGSGGGSGGGSGGGSGGGSGGGWQEWEQKITALLEQAQIQQEKNEYELQKLDKWASLWEWFG
**Q.** Which results are given for B1?
**A.** Ka: 1.13e+09 M⁻¹; Kd: 0.888 nM

B2: Rob 1 (Fusion protein T1357-C1qA) (protein)
chain: MRGSHHHHHHAIDVIEGRWQEWEQKITALLEQAQIQQEKNEYELQKLDKWASLWEWFGKGDQGEPGPSGNPGKVGYPGPSGPLGARGIPGIKGTKGSPGNIKDQPRPAFSAIRRNPPMGGNVVIFDTVITNQEEPYQNHSGRFVCTVPGYYYFTFQVLSQWEICLSIVSSSRGQVRRSLGFCDTTNKGLFQVVSGGMVLQLQQGDQVWVEKDPKKGHIYQGSEADSVFSGFLIFPSA
**Q.** Which results are given for B2?
**A.** Ka: 1.85e+08 M⁻¹; Kd: 5.41 nM
